Experimental data from patent US20200399318A1, “PEPTIDE INHIBITORS OF PHOSPHOGLYCERATE MUTASE AND METHODS OF USE” (priority 2016, published 2020).

System: D. immitis iPGM
Test: PGM coupled-enzyme bioluminescent end-point assay (Kinase-Glo Plus), 1536-well
Format: biochemical, Dirofilaria immitis
Settings: for D. immitis iPGM PIC50, M: 10 nM D. immitis iPGM, 0.4 mM 3PG, ± s.d. or s.e. of fit, NA = no appreciable inhibition
[1] = Table 8, Ce-2 analogs, NA = no appreciable activity, * estimated from incomplete concentration response curves
[2] = Table 6, pIC50 = -log IC50, NA = no appreciable inhibitory activity at highest concentration tested

**Q.** For `CC[C@H](C)[C@@H]1NC(=O)[C@H](CCCNC(=N)N)NC(=O)[C@H](Cc2ccccc2)NC(=O)[C@@H]2CCCN2C(=O)[C@H](CC(N)=O)NC(=O)[C@H](C)NC(=O)[C@H](CC(C)C)NC(=O)[C@H]([C@@H](C)O)NC(=O)[C@H]([C@@H](C)CC)NC(=O)[C@H](Cc2ccc(O)cc2)NC(=O)CSC[C@@H](C(=O)NCC(N)=O)NC(=O)[C@H](Cc2c[nH]cn2)NC(=O)[C@H](CC(C)C)NC1=O` [Ce-3], which “D. immitis iPGM PIC50, M” value is on record?
**A.** The value was 5.18 ± 0.03 M.

**Q.** How did the “D. immitis iPGM PIC50, M” value turn out when `CC(C)C[C@H](NC(=O)[C@H](Cc1ccc(O)cc1)NC(=O)[C@@H]1CSCC(=O)N[C@H](Cc2ccc(O)cc2)C(=O)N[C@@H](CC(=O)O)C(=O)N[C@@H](Cc2ccc(O)cc2)C(=O)N2CCC[C@H]2C(=O)NCC(=O)N[C@@H](CC(=O)O)C(=O)N[C@@H](Cc2ccc(O)cc2)C(=O)N1)C(=O)N[C@@H](Cc1ccc(O)cc1)C(=O)NCC(=O)N[C@H](C(=O)N[C@@H](CS)C(N)=O)[C@@H](C)O` [Ce-2a] was run?
**A.** Its value is 7.82 ± 0.29 M.

**Q.** And the “pIC50 D. immitis iPGM” value [1]?
**A.** The value was 9.91.

**Q.** Which “D. immitis iPGM PIC50, M” value does the source give for `C[C@@H](O)[C@H](NC(=O)[C@H](CO)NC(=O)[C@@H]1CSCC(=O)N[C@H](Cc2ccc(O)cc2)C(=O)N2CCC[C@H]2C(=O)N[C@@H](CCC(=O)O)C(=O)N[C@@H](Cc2c[nH]c3ccccc23)C(=O)N2CCC[C@H]2C(=O)N[C@@H](CC(N)=O)C(=O)N1)C(=O)N[C@@H](CS)C(=O)NCC(N)=O` [Bm-6] here?
**A.** The value was 6.26 ± 0.43 M.

**Q.** And the “pIC50 D. immitis iPGM” value [2]?
**A.** Its value is 6.26.

**Q.** `CC(C)[C@@H]1NC(=O)[C@H](C)NC(=O)[C@@H](Cc2ccc(O)cc2)NC(=O)CSC[C@@H](C(=O)N[C@@H](CCCNC(=N)N)C(=O)N[C@H](C(=O)N[C@@H](CS)C(=O)NCC(N)=O)[C@@H](C)O)NC(=O)[C@H](CC(N)=O)NC(=O)[C@@H]2CCCN2C(=O)[C@H](Cc2c[nH]c3ccccc23)NC1=O` [Bm-7] was tested. Which “D. immitis iPGM PIC50, M” value did it give?
**A.** Its value is 5.42 ± 0.46 M.

**Q.** What about the “pIC50 D. immitis iPGM” value [2] of the same compound?
**A.** The value was 5.42.

**Q.** `CC(=O)N[C@H](Cc1ccc(O)cc1)C(=O)N[C@@H](CC(=O)O)C(=O)N[C@@H](Cc1ccc(O)cc1)C(=O)N1CCC[C@H]1C(=O)NCC(=O)N[C@@H](CC(=O)O)C(=O)N[C@@H](Cc1ccc(O)cc1)C(=O)N[C@@H](CO)C(=O)N[C@@H](Cc1ccc(O)cc1)C(=O)N[C@@H](CC(C)C)C(=O)N[C@@H](Cc1ccc(O)cc1)C(=O)NCC(=O)N[C@H](C(=O)N[C@@H](CS)C(=O)NCC(N)=O)[C@@H](C)O` [Ce-L2] was tested. Which “D. immitis iPGM PIC50, M” value did it give?
**A.** The value was 5.18 ± 0.17 M.

**Q.** And the pIC50 D. immitis iPGM [1]?
**A.** Its pIC50 D. immitis iPGM is 5.18 ·.

**Q.** How did the “D. immitis iPGM PIC50, M” value turn out when `CC(C)C[C@@H]1NC(=O)[C@@H](Cc2ccc(O)cc2)NC(=O)CSC[C@@H](C(=O)N[C@@H](CC(N)=O)C(=O)N[C@H](C(=O)N[C@@H](CS)C(=O)NCC(N)=O)[C@@H](C)O)NC(=O)[C@H](CC(N)=O)NC(=O)[C@@H]2CCCN2C(=O)[C@H](Cc2c[nH]c3ccccc23)NC(=O)[C@H](CCC(=O)O)NC1=O` [Bm-4] was run?
**A.** Its value is 6.21 ± 0.44 M.

**Q.** And the “pIC50 D. immitis iPGM” value [2]?
**A.** Its value is 6.21.

**Q.** With `CC(C)C[C@@H]1NC(=O)[C@@H](Cc2ccc(O)cc2)NC(=O)CSC[C@@H](C(=O)N[C@@H](CC(N)=O)C(=O)N[C@H](C(=O)N[C@@H](CS)C(N)=O)[C@@H](C)O)NC(=O)[C@H](CC(N)=O)NC(=O)[C@@H]2CCCN2C(=O)[C@H](Cc2c[nH]c3ccccc23)NC(=O)[C@H](CCC(=O)O)NC1=O` [Bm-4a] as the compound, how does the “D. immitis iPGM PIC50, M” value read?
**A.** Its value is 6.28 ± 0.40 M.

**Q.** How did the “D. immitis iPGM PIC50, M” value turn out when `CC[C@H](C)[C@@H]1NC(=O)[C@H](CCC(=O)O)NC(=O)[C@@H]2CCCN2C(=O)[C@H](C)NC(=O)[C@H](CC(N)=O)NC(=O)[C@@H]2CCCN2C(=O)[C@H](Cc2c[nH]c3ccccc23)NC(=O)[C@H](CO)NC(=O)[C@@H](Cc2ccc(O)cc2)NC(=O)CSC[C@@H](C(=O)N[C@@H](CS)C(=O)NCC(N)=O)NC(=O)[C@H](CCCCN)NC(=O)[C@H](Cc2c[nH]c3ccccc23)NC1=O` [Bm-1] was run?
**A.** The value was 5.99 ± 0.41 M.

**Q.** What about the “pIC50 D. immitis iPGM” value [2] of the same compound?
**A.** The value was 5.99.

**Q.** With `CC(C)C[C@@H]1NC(=O)[C@@H](Cc2ccc(O)cc2)NC(=O)CSC[C@@H](C(=O)N[C@@H](CO)C(=O)N[C@H](C(=O)N[C@@H](CS)C(=O)NCC(N)=O)[C@@H](C)O)NC(=O)[C@H](CC(N)=O)NC(=O)[C@@H]2CCCN2C(=O)[C@H](Cc2c[nH]c3ccccc23)NC(=O)[C@H](CC(=O)O)NC1=O` [Bm-5] as the compound, how does the “D. immitis iPGM PIC50, M” value read?
**A.** The value was 6.10 ± 0.56 M.

**Q.** What about the “pIC50 D. immitis iPGM” value [2] of the same compound?
**A.** The value was 6.10.
